Test results taken from patent US20230310414A1.

Test system: SARS-CoV-2
Assay: cell viability (CPE) assay, VERO-E6 cells enriched for ACE-2 infected with SARS-CoV-2, CellTiter-Glo
Assay type: cell-based

COc1ccc2cc1Oc1ccc(cc1)C[C@H]1c3cc(c(OC)cc3CCN1C)Oc1c(OC)c(OC)cc3c1[C@H](C2)N(C)CC3 [tetrandrine, (1S,14S)-9,20,21,25-tetramethoxy-15,30-dimethyl-7,23-dioxa-15,30-diazaheptacyclo[22.6.2.2^3,6.1^8,12.1^14,18.0^27,31.0^22,33]hexatriaconta-3(36),4,6(35),8,10,12(34),18,20,22(33),24,26,31-dodecaene]
EC50 fold lower than when used alone (tetrandrine combined with cepharanthine): 6.24 fold

(14S,27S)-22,33-dimethoxy-13,28-dimethyl-2,5,7,20-tetraoxa-13,28-diazaoctacyclo[25.6.2.2^16,19.1^3,10.1^21,25.0^4,8.0^31,35.0^14,39]nonatri-aconta-1(33),3(39),4(8),9,16(38),17,19(37),21,23,25(36),31,34-dodecaene [cepharanthine]
EC50 fold lower than when used alone (cepharanthine combined with tetrandrine): 30.64 fold | SI (selectivity index; CC50/EC50) (compound alone): SI: 14.16.
